Columns and labels:
Test in all cases: cell-based or functional assay
[1] = molecular target: hNav1.8 (human), Q9Y5Y9
[2] = molecular target: hNav1.2 (human), Q99250
[3] = molecular target: hNav1.1 (human), P35498
[4] = molecular target: hNav1.9 (human), Q9UI33
[5] = molecular target: hNav1.3 (human), Q9NY46
[6] = molecular target: hNav1.6 (human), Q9UQD0
[7] = molecular target: hNav1.4 (human), P35499
[8] = molecular target: hNav1.5 (human), Q14524

For DCRYMFGDCEKDEDCCKHLGCKRKMKYCAWDFTFT (modifications not checked) [Pnc1a], the Selectivity for Nav1.7, membrane potential assay [1] was > 100 fold, the selectivity for Nav1.7, automated patch clamp [1] was > 1000 fold and the Selectivity for Nav1.7, membrane potential assay [2] was > 10 fold. The selectivity for Nav1.7, automated patch clamp [2] was > 100 fold, the Selectivity for Nav1.7, membrane potential assay [3] was > 50 fold and the selectivity for Nav1.7, automated patch clamp [3] was > 30 fold. For the same binder, the selectivity for Nav1.7, automated patch clamp [4] was > 1000 fold, the Selectivity for Nav1.7, membrane potential assay [5] was > 10 fold and the selectivity for Nav1.7, automated patch clamp [5] was > 100 fold. The Selectivity for Nav1.7, membrane potential assay [6] was > 50 fold, the selectivity for Nav1.7, automated patch clamp [6] was > 100 fold and the Selectivity for Nav1.7, membrane potential assay [7] was > 50 fold. The selectivity for Nav1.7, automated patch clamp [7] was > 100 fold, the Selectivity for Nav1.7, membrane potential assay [8] was > 100 fold and the selectivity for Nav1.7, automated patch clamp [8] was > 1000 fold.

From US20190359662A1
